Test results as given in PubChem BioAssay AID1159558 (GlaxoSmithKline (GSK), 2015).

By UniProt entry, the sequences of proteins in these tests, tags left out.
UniProt Q7Z1V1, whole entry, looked up: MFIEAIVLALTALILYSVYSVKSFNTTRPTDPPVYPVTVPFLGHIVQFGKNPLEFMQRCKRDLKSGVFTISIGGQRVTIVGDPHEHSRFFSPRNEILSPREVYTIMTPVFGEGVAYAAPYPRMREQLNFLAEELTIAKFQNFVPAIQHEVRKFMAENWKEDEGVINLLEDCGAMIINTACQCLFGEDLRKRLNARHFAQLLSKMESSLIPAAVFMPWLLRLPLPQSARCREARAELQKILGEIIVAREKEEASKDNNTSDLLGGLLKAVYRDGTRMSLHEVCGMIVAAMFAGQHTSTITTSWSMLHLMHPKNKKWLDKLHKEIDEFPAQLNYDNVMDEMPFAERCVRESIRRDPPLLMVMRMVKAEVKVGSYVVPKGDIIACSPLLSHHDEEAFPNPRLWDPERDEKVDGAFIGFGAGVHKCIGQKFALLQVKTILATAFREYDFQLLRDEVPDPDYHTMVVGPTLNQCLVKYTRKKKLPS

Target: Sterol 14-alpha demethylase (Trypanosoma cruzi (strain CL Brener)) (UniProt Q7Z1V1)
Experiment: T. cruzi sterol 14-alpha demethylase inhibition – biochemical, recombinant enzyme, mechanism study for T. cruzi antiparasitic project, dose response (AID 1159558);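 note: enzyme in bacterial membranes with Anopheles gambiae CYP reductase and cytochrome b5 partners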
Details: recombinant T. cruzi CYP51, BOMCC fluorescence

## CC(C)(C)c1ccc(NC2(C(N)=O)CCN(Cc3ccccc3)CC2)cc1
  IC50: 5 µM
